Test results as given in US10814612B2, “Use of thiazolide compounds for the prevention and treatment of viral diseases, cancer and diseases caused by intracellular infections” (priority 2011, dated 2020).
No dose or concentration is given here for some results.

Test system: Toll-Like Receptor signalling pathway
Assay: TLR pathway Real-time PCR array (84 genes) in PBMC
Assay type: cell-based, human
Conditions: flu-stimulated PBMC, 3 hours of incubation

O=C(Nc1ncc(Cl)s1)c1ccccc1O [RM-4848, N-(5-chlorothiazol-2-yl)-2-hydroxybenzamide]
number of the 84 TLR-pathway genes upregulated: 7
